A mixed list of measured activities; the numbers were collected in NIAID ChemDB.

Shared fields: enzyme or target tests; species: Hepatitis C virus; protein: NS3 protease; read-out: IC50

An empty or dashed field is not shown. Rows are shuffled and stem from different studies. ICn: concentration for n% inhibition.

smiles | strain or isolate | read by | result
CC(=O)N[C@H](C(=O)N[C@H](C(=O)N1C[C@H](Oc2ccc(Cl)c3cccnc23)CC1C(=O)NC1(C(=O)O)CC1)C(C)C)C1CCCCC1 | - | - | 100 µM
CC(C)C[C@H](NC(=O)[C@H](CC(=O)O)NC(=O)[C@@H](N)CC(=O)O)C(=O)N[C@@H](CCC(=O)O)C(=O)N[C@@H](CC1CCCCC1)C(=O)N[C@@H](CS)C(=O)O | - | - | 0.29 µM
CC(=O)N[C@H](C(=O)N[C@H](C(=O)N1C[C@H](Oc2nc3ccccc3s2)CC1C(=O)NC1(C(=O)O)CC1)C(C)C)C1CCCCC1 | - | - | 20 µM
C=C[C@@H]1C[C@]1(NC(=O)[C@@H]1C[C@@H](Oc2cc(-c3ccccc3)nc3cc(CO)ccc23)CN1C(=O)[C@@H]1CSCN1)C(=O)O | 1b | radiometric | 13 µM
CC(C)C[C@H](NC(=O)[C@@H](Cc1ccccc1)NC(=O)[C@@H](N)CC(=O)O)C(=O)N[C@@H](CCC(=O)O)C(=O)N[C@@H](CC1CCCCC1)C(=O)N[C@@H](CS)C(=O)O | - | - | 0.82 µM
CC[C@H](NC(=O)[C@H](CC1CCCCC1)NC(=O)C(NC(=O)[C@H](CC(C)C)NC(=O)c1cnccn1)[C@@H](C)CC)C(=O)C(=O)NCC(=O)NS(=O)(=O)c1ccc2ccccc2c1 | - | - | 8.9 µM
CC(=O)N[C@H](C(=O)N[C@H](C(=O)N1C[C@H](O)CC1C(=O)NC1(C(=O)O)CC1)C(C)C)C1CCCCC1 | - | - | >1000 µM
CCC[C@H](NC(=O)[C@H](CC1CCCCC1)NC(=O)[C@H](CCC(=O)O)NC(=O)[C@H](CC(C)C)NC(=O)[C@H](CCC(=O)O)NC(=O)[C@@H](N)CC(=O)O)C(=O)O | - | - | 1.3 µM
O=c1c(Br)cc(CN2CCOCC2)cc(Br)c1O | - | - | 17.56 µM
CC1=C(C2=C(C)C(=O)C(=O)N(Cc3ccccc3)C2=O)C(=O)N(Cc2ccccc2)C(=O)C1=O | - | - | 6 µM
C=C[C@@H]1C[C@]1(NC(=O)[C@@H]1C[C@@H](Oc2cc(-c3ccccc3)nc3cc(CO)ccc23)CN1C(=O)[C@@H](NC(=O)OC(C)(C)C)C(C)(C)C)C(=O)O | 1b | radiometric | 0.08 µM
CC(C)c1cccc(O)c(=O)c1 | - | - | >200 µM
CC(=O)N[C@H](C(=O)N[C@H](C(=O)N1C[C@H](Oc2ccccc2-c2ccc(C(=O)O)cc2)CC1C(=O)NC1(C(=O)O)CC1)C(C)C)C1CCCCC1 | - | - | >200 µM
CC[C@H](C)[C@H](NC(=O)[C@H](CC(C)C)NC(=O)[C@@H](CC(C(=O)O)C(=O)O)NC(=O)[C@@H](N)CC(=O)O)C(=O)N[C@@H](CC1CCCCC1)C(=O)N[C@@H](CS)C(=O)O | - | - | 0.0015 µM
CCC(CC)C(O)C(=O)N1C[C@H](C2CCCC2)C[C@@H]1C(=O)N[C@@H](CC(F)F)C(=O)NCCc1c(F)cc(C(=O)O)cc1F | - | - | 50 µM
O=c1c(CN2CCOCC2)cc(CN2CCOCC2)cc(CN2CCOCC2)c1O | - | - | 125 µM
CCCC[C@H](NC(=O)[C@H](CC(C)C)NC(=O)[C@@H](NC(=O)[C@](C)(Cc1ccccc1)NC(=O)[C@H](CCC(=O)O)NC(=O)[C@H](CC(=O)O)NC(=O)Cc1ccc2ccccc2c1)C(C)(C)C)C(=O)C(N)=O | - | - | 0.09 µM
CC(C)C[C@H](NC(=O)[C@H](CC(C(=O)O)C(=O)O)NC(=O)[C@@H](N)CC(=O)O)C(=O)N[C@@H](CCC(=O)O)C(=O)N[C@@H](CC1CCCCC1)C(=O)N[C@@H](CS)C(=O)O | - | - | 0.055 µM